Pooled drug test results. Numbers come from NIAID ChemDB, via PubChem.

Shared fields: target-level tests

Blank or dashed fields: not listed here.

structure,read by,protein,dose,strain or isolate,organism,measure,value
CC[C@H](C)[C@H](NC(=O)[C@@H](NC(=O)[C@H](CCC(=O)O)NC(=O)[C@H](CC(=O)O)NC(C)=O)C(c1ccccc1)c1ccccc1)C(=O)N[C@@H](CC1CCCCC1)C(=O)N[C@@H](CS)C(=O)O,,HCV NS3 protease,,,Hepatitis C virus,IC50,0.06 µM
CC1CCC(C(=O)N(c2cc(-c3ccccc3)sc2C(=O)O)C2COC(C)(C)OC2)CC1,,NS3 ATPase,,,Hepatitis C virus,IC50,<5 µM
O=C(Cc1cc(F)cc(F)c1)Nc1ccsc1-c1nc(C(=O)O)c(O)c(=O)[nH]1,,HCV polymerase,,,Hepatitis C virus,IC50,<25 µM
O=C(Nc1ccc2[nH]ncc2c1)c1cc(C2CCNCCN2)c(F)cc1F,,Reverse transcriptase,0.01 µg/mL,,Hepatitis B virus,inhibition,30%
CC[C@H](C)[C@H](NC(=O)[C@@H](NC(C)=O)C(c1ccccc1)c1ccccc1)C(=O)N[C@@H](CC1CCCCC1)C(=O)N[C@@H](CS)C(=O)O,,HCV NS3 protease,,,Hepatitis C virus,IC50,100 µM
OC[C@H]1O[C@@H](n2cnc3cc(Br)c(Br)cc32)[C@H](O)[C@@H]1O,,Nonstructural protein 3 NTPase/helicase,,,Hepatitis C virus,IC50,320 µM
Cc1cc(-c2nc(C(=O)O)c(O)c(=O)[nH]2)ccc1Br,,HCV polymerase,,,Hepatitis C virus,IC50,<100 µM
COc1cc(OC)c(CCC2(C3CCCC3)CC(O)=C(Sc3n[nH]c(=O)n3C)C(=O)O2)cc1Cl,,Nonstructural protein 5B,,,Hepatitis C virus,IC50,<1 µM
CSCC[C@H](NC(=O)[C@H](CCC(=O)O)NC(=O)[C@@H](CC(=O)O)NC(C)=O)C(=O)N[C@@H](CCC(=O)O)C(=O)N[C@@H](CCC(=O)O)C(=O)N[C@@H](CS)C(=O)O,,Full-length NS3,,,Hepatitis C virus,IC50,0.6012 µM
Cc1ccccc1S(=O)(=O)Nc1cc(-c2ccc(F)cc2)sc1C(=O)O,,NS3 ATPase,,,Hepatitis C virus,IC50,<5 µM
O=C1CC(c2ccc(O)cc2)Oc2ccccc21,SYBR Green,Replicase complex,20 µM,J4,Hepatitis C virus,inhibition,9.3%
O=C(Nc1ccc2cn[nH]c2c1)c1cc(C2CCNCCN2)c(F)cc1F,,Reverse transcriptase,0.1 µg/mL,,Hepatitis B virus,inhibition,43%
O=c1cc(-c2ccc(O)cc2)oc2cc(O)cc(O)c12,SYBR Green,Replicase complex,20 µM,J4,Hepatitis C virus,inhibition,62.5%
Nc1ccn([C@@H]2O[C@H](OP(=O)(O)OP(=O)(O)OP(=O)(O)O)C[C@H]2O)c(=O)n1,,NS3 serine protease,,,Hepatitis C virus,IC50,0.036 µM
CN1CCNCCC1c1cc(C(=O)Nc2ccc3cn[nH]c3c2)c(F)cc1F,,Reverse transcriptase,1 µg/mL,,Hepatitis B virus,inhibition,53%
CC(=O)N[C@H](C(=O)N[C@H](C(=O)N1C[C@H](OCc2cccc3ccccc23)C[C@H]1C(=O)NC1(C(=O)O)CC1)C(C)C)C1CCCCC1,,Nonstructural protein 3 protease,,,Hepatitis C virus,IC50,3.5 µM
Nc1ncnc2c1ncn2[C@@H]1O[C@H](COC(=O)c2ccc(S(=O)(=O)F)cc2)[C@@H](O)[C@H]1O,,Nonstructural protein 3 NTPase/helicase,300 µM,,Hepatitis C virus,inhibition,48%
Cc1ccccc1S(=O)(=O)Nc1cc(-c2ccc(Cl)s2)sc1C(=O)O,,NS3 ATPase,,,Hepatitis C virus,IC50,<5 µM
O=C1OC(CCc2ccc(O)cc2)(C2CCCC2)CC(O)=C1SCc1ccccc1,,Nonstructural protein 5B,,,Hepatitis C virus,IC50,1–10 µM
CCC[C@H](NC(=O)[C@@H]1C2CCCC2CN1C(=O)[C@@H](NC(=O)[C@@H](NC(=O)c1cnccn1)C(C)(C)C)C(C)(C)C)C(=O)C(=O)NC1CC1,,Nonstructural protein 3 protease,,,Hepatitis C virus,Ki,0.17 µM
Cc1ccccc1S(=O)(=O)Nc1cc(-c2ccc(S(C)(=O)=O)cc2)sc1C(=O)O,,NS3 ATPase,,,Hepatitis C virus,IC50,<5 µM
O=C1/C(=C\c2cc(F)c(F)c(F)c2)SC(=S)N1NS(=O)(=O)c1ccccc1,,NS5B polymerase,,,Hepatitis C virus,IC50,≤30 µM
CC[C@H](C)[C@H](NC(=O)[C@H](CC(C)C)NC(=O)[C@@H](CC(C(=O)O)C(=O)O)NC(=O)[C@H](CC(=O)O)NC(C)=O)C(=O)N[C@@H](CC1CCCCC1)C(=O)N[C@@H](CS)C(=O)O,,HCV NS3 protease,,,Hepatitis C virus,IC50,0.0015 µM
N#Cc1cccc(/C=C2/SC(=S)N(NS(=O)(=O)c3ccccc3)C2=O)c1,,NS5B polymerase,,,Hepatitis C virus,IC50,≤30 µM
CC(=O)c1cccc(CCC2(C3CCCC3)CC(=O)CC(=O)O2)c1,,Nonstructural protein 5B,,,Hepatitis C virus,IC50,1–10 µM
CCCC(NC(=O)[C@@H]1C2CCCC2CN1C(=O)[C@@H](NC(=O)[C@@H](NC(=O)c1cnccn1)[C@@H](C)CC)C(C)(C)C)C(=O)C(=O)NC1CC1,,Nonstructural protein 3 protease,,,Hepatitis C virus,Ki,0.089 µM
O=C1CC(c2ccccc2)Oc2ccccc21,SYBR Green,Replicase complex,20 µM,J4,Hepatitis C virus,inhibition,7.5%
O=P(O)(O)OP(=O)(O)O,,DNA polymerase,,,Hepatitis B virus,IC50,~500 µM
O=C(Nc1ccsc1-c1nc(C(=O)O)c(O)c(=O)[nH]1)OCc1cccc2ccccc12,,HCV polymerase,,,Hepatitis C virus,IC50,<25 µM
NC(=O)c1ncn([C@@H]2O[C@H](COC(=O)c3ccc(S(=O)(=O)F)cc3)[C@@H](O)[C@H]2O)n1,,Nonstructural protein 3 NTPase/helicase,300 µM,,Hepatitis C virus,inhibition,64%
O=C(O)C(=O)O,,DNA polymerase,,,Hepatitis B virus,IC50,>500 µM
CC(C)COC(=O)Nc1ccsc1-c1nc(C(=O)O)c(O)c(=O)[nH]1,,HCV polymerase,,,Hepatitis C virus,IC50,<25 µM
Brc1c(Br)c(Br)c2n[nH]nc2c1Br,,Nonstructural protein 3 NTPase/helicase,,,Hepatitis C virus,IC50,20 µM
O=P(O)(O)P(=O)(O)O,,DNA polymerase,,,Hepatitis B virus,IC50,~500 µM
CN1CCN(c2cc(C(=O)Nc3ccc4cn[nH]c4c3)c(F)cc2F)CC1,,Reverse transcriptase,,,Hepatitis B virus,IC50,0.1–1 µg/mL
CCCn1c(=O)c(C2=NS(=O)(=O)c3ccccc3N2)c(O)c2ccccc21,,RNA-dependent RNA polymerase,,,Hepatitis C virus,IC50,0.1 µM
O=C(O)C(=O)CC(=O)c1cccc(NS(=O)(=O)c2cc(Cl)c(Cl)cc2Cl)c1,,NS3 serine protease,,,Hepatitis C virus,IC50,0.049 µM
CCC[C@H](NC(=O)[C@@H]1C2CCCC2CN1C(=O)[C@@H](NC(=O)[C@@H](NC(=O)c1cnccn1)C1CCCCC1)C(C)(C)C)C(=O)C(=O)N[C@@H](C)CC,,Nonstructural protein 3 protease,,,Hepatitis C virus,Ki,0.136 µM
CCOc1cccc(CCC2(C3CCCC3)CC(=O)CC(=O)O2)c1,,Nonstructural protein 5B,,,Hepatitis C virus,IC50,1–10 µM
O=C(O)c1nc(-c2sccc2NC(=O)C(O)c2ccccc2Cl)[nH]c(=O)c1O,,HCV polymerase,,,Hepatitis C virus,IC50,<25 µM
CC[C@H](NC(=O)[C@H](CC1CCCCC1)NC(=O)[C@@H](NC(=O)[C@H](CC(C)C)NC(=O)c1cnccn1)[C@@H](C)CC)C(=O)C(=O)NCC(=O)O,,NS3 serine protease,,,Hepatitis C virus,Ki,<0.01 µM
CCC[C@H](NC(=O)[C@@H]1C2CCCC2CN1C(=O)[C@@H](NC(=O)[C@@H](NC(=O)c1cnccn1)C1CCCCC1)C(C)(C)C)C(=O)C(=O)N[C@@H](C)c1ccncc1,,Nonstructural protein 3 protease,,,Hepatitis C virus,Ki,0.053 µM
O=P(O)(O)C(O)P(=O)(O)O,,DNA polymerase,,,Hepatitis B virus,IC50,>500 µM
COc1ccc(CCC2(C3CCCC3)CC(O)=C(Sc3nc4nc(C)cc(C)n4n3)C(=O)O2)cc1,,Nonstructural protein 5B,,,Hepatitis C virus,IC50,<1 µM
CCCC(NC(=O)[C@@H]1C[C@@H]2CN1C(=O)[C@H](C1CCCCC1)NC(=O)Cc1cccc(c1)OCCCCO2)C(=O)C(=O)NCC(=O)N[C@H](C(=O)OC(C)(C)C)c1ccccc1,,NS3 serine protease,,,Hepatitis C virus,Ki,<0.1 µM
O=P(O)(O)CP(=O)(O)O,,DNA polymerase,,,Hepatitis B virus,IC50,>500 µM
C=CC[C@H](NC(=O)[C@@H]1CCc2c(Cl)nc(NCc3ccc(OC)cc3)c(=O)n21)B1OC2CC3CC(C3(C)C)C2(C)O1,,NS3 serine protease,,,Hepatitis C virus,IC50,<10 µM
O=C(Nc1ccc2cn[nH]c2c1)c1cc(N2CCC(O)CC2)c(F)cc1F,,Reverse transcriptase,,,Hepatitis B virus,IC50,>1 µg/mL
O=C(Cc1cc(F)ccc1F)Nc1ccsc1-c1nc(C(=O)O)c(O)c(=O)[nH]1,,HCV polymerase,,,Hepatitis C virus,IC50,<25 µM
CCC[C@H](NC(=O)C1CN(C(=O)[C@@H](NC(=O)[C@@H](NC(=O)c2cnccn2)C(C)C)C(C)C)C[C@@H]1OC(=O)N1CCc2ccccc2C1)C(=O)C(=O)N1CC1C(=O)OC,,NS3 serine protease,,,Hepatitis C virus,Ki,<1 µM
CC(C(=O)O)P(=O)(O)O,,DNA polymerase,,,Hepatitis B virus,IC50,>500 µM
Cc1cccc(/C=C2/SC(=S)N(NS(=O)(=O)c3ccccc3)C2=O)n1,,NS5B polymerase,,,Hepatitis C virus,IC50,>30 µM
CC(=O)N[C@@H](CC(=O)O)C(=O)N[C@@H](CCC(=O)O)C(=O)N[C@H](C(=O)N[C@@H](CCC(=O)O)C(=O)N[C@@H](CC1CCCCC1)C(=O)N[C@@H](CS)C(=O)O)C(C)C,,HCV NS3 protease,,,Hepatitis C virus,IC50,0.33 µM
O=C(Nc1ccc2[nH]ncc2c1)c1cc(N2CCN(CCO)CC2)c(F)cc1F,,Reverse transcriptase,1 µg/mL,,Hepatitis B virus,inhibition,55%
O=C1CC(=O)OC(CCc2ccc3c(c2)OCCO3)(C2CCCC2)C1,,Nonstructural protein 5B,,,Hepatitis C virus,IC50,1–10 µM
CN1CCNCCC1c1cc(C(=O)Nc2ccc3[nH]ncc3c2)c(F)cc1F,,Reverse transcriptase,1 µg/mL,,Hepatitis B virus,inhibition,74%
CC(C)(C)OC(=O)N1CCC(N(C(=O)c2ccc(Cl)cc2Cl)c2cc(-c3ccccc3)sc2C(=O)O)CC1,,NS3 ATPase,,,Hepatitis C virus,IC50,<5 µM
CCC[C@H](NC(=O)[C@@H]1C2CCCC2CN1C(=O)[C@@H](NC(=O)[C@@H](NC(=O)c1cnccn1)C(C)CC)C(C)(C)C)C(=O)C(=O)NC1CC1,,Nonstructural protein 3 protease,,,Hepatitis C virus,Ki,0.18 µM
CC(=O)N[C@@H](CC(=O)O)C(=O)N[C@H](CCC(=O)O)C(=O)N[C@@H](CC(C)C)C(=O)N[C@@H](CCC(=O)O)C(=O)N[C@@H](CC1CCCCC1)C(=O)N[C@@H](CS)C(=O)O,,HCV NS3 protease,,,Hepatitis C virus,IC50,0.045 µM
CC(C)N(C(=O)C1CC[C@@H](C)CC1=O)c1cc(-c2ccccc2)sc1C(=O)O,,NS3 ATPase,,,Hepatitis C virus,IC50,<5 µM
CSCC[C@H](NC(=O)[C@H](CCC(=O)O)NC(=O)[C@H](CC(=O)O)NC(C)=O)C(=O)N[C@@H](CCC(=O)O)C(=O)N[C@@H](Cc1ccc2ccccc2c1)C(=O)N[C@@H](CS)C(=O)O,,HCV NS3 protease,,,Hepatitis C virus,IC50,0.8 µM
O=C(CCc1ccsc1)Nc1ccsc1-c1nc(C(=O)O)c(O)c(=O)[nH]1,,HCV polymerase,,,Hepatitis C virus,IC50,<25 µM
CSCC[C@H](NC(=O)CCCC(=O)O)C(=O)N[C@@H](CCC(=O)O)C(=O)N[C@@H](CCC(=O)O)C(=O)N[C@@H](CS)C(=O)O,,HCV NS3 protease,,,Hepatitis C virus,IC50,69 µM
O=C(O)c1sc(-c2ccccc2)cc1NS(=O)(=O)c1ccc(-c2csnn2)s1,,NS3 ATPase,,,Hepatitis C virus,IC50,5–20 µM
COc1ccccc1CNC(=O)Nc1cscc1-c1nc(C(=O)O)c(O)c(=O)[nH]1,,HCV polymerase,,,Hepatitis C virus,IC50,<25 µM

The last 6 rows once more:

| structure | read by | protein | dose | strain or isolate | organism | measure | value |
|---|---|---|---|---|---|---|---|
| CC(C)N(C(=O)C1CC[C@@H](C)CC1=O)c1cc(-c2ccccc2)sc1C(=O)O |  | NS3 ATPase |  |  | Hepatitis C virus | IC50 | <5 µM |
| CSCC[C@H](NC(=O)[C@H](CCC(=O)O)NC(=O)[C@H](CC(=O)O)NC(C)=O)C(=O)N[C@@H](CCC(=O)O)C(=O)N[C@@H](Cc1ccc2ccccc2c1)C(=O)N[C@@H](CS)C(=O)O |  | HCV NS3 protease |  |  | Hepatitis C virus | IC50 | 0.8 µM |
| O=C(CCc1ccsc1)Nc1ccsc1-c1nc(C(=O)O)c(O)c(=O)[nH]1 |  | HCV polymerase |  |  | Hepatitis C virus | IC50 | <25 µM |
| CSCC[C@H](NC(=O)CCCC(=O)O)C(=O)N[C@@H](CCC(=O)O)C(=O)N[C@@H](CCC(=O)O)C(=O)N[C@@H](CS)C(=O)O |  | HCV NS3 protease |  |  | Hepatitis C virus | IC50 | 69 µM |
| O=C(O)c1sc(-c2ccccc2)cc1NS(=O)(=O)c1ccc(-c2csnn2)s1 |  | NS3 ATPase |  |  | Hepatitis C virus | IC50 | 5–20 µM |
| COc1ccccc1CNC(=O)Nc1cscc1-c1nc(C(=O)O)c(O)c(=O)[nH]1 |  | HCV polymerase |  |  | Hepatitis C virus | IC50 | <25 µM |

Percent inhibition refers to the dose given; in toxicity tests it is the harm to the cells. Conditions beyond the fields shown may differ between rows. ICn is the concentration giving n% inhibition. a–b is a range or a potency band.